Patent publication US20240327339A1, “COMPOSITIONS AND METHODS FOR TREATING AND PREVENTING VIRAL INFECTIONS” (priority 2021, published 2024)

Tested on: A/WSN/33
Test: Virus resistance test, A/WSN/33 infected A549 cells
Conditions: A549 cells treated 72 h, then passaged; repeated twice

Q: `CCCN(CCC)S(=O)(=O)c1ccc(C(=O)O)cc1` [Probenecid, 4-[(dipropylamino)sulfonyl] benzoic acid] was tested. Which “virus replication after passage of treated virus (resistance)” value did it give?
A: No detectable virus replication was identified
